The results in this text go back to publication PMC6128652, “Structure of the Cladosporium fulvum Avr4 effector in complex with (GlcNAc)6 reveals the ligand-binding mechanism and uncouples its intrinsic function from recognition by the Cf-4 resistance protein” (PLoS Pathogens, 2018).

A short description of the data set: Isothermal titration calorimetry (ITC) of CfAvr4 variants with chitin hexasaccharide. The format is binding. The settings on record: (GlcNAc)6 titrated into protein. As to the method: A stock solution of the monomer of N-acetylglucosamine was prepared by dissolving the dry powder in a buffer containing 10 mM Bis-Tris, pH 6.5, 100 mM NaCl to a concentration of 0.100 g/L using analytic techniques. Standard solution of 0, 0.010, 0.025, 0.050, 0.075 g/L were prepared by serial dilutions. Using glass test tubes and pipets, 100 μL of each standard was mixed with 300μL of concentrated sulfuric acid and vortexed for 10 sec to mix. Solutions were incubated at RT for 10 min and then placed on ice to stop the reaction. […] Analytically prepared solution of the di- and tri-saccharide scaled linearly to the calibration curve. To determine the concentration of the chitin hexasaccharide solutions used in ITC, the solutions were diluted into the dynamic range of the calibration curve (S12 Fig) and subjected to the above procedure.
All ITC experiments were performed on a TA Instruments low volume NanoITC with a 186uL reaction cell and a reference cell filled with degassed Milli-Q grade water. Reactions were run in a buffer containing 10mM Bis-Tris, pH 6.5, 100 mM NaCl. […] The integrated heats, after correction for the heat of dilution were analyzed using the NanoAnalyze software from ITC Technologies. […]

B1: WT-CfAvr4: wild-type Avr4 effector protein of Cladosporium fulvum, CBM14 chitin-binding lectin, E. coli-produced mature form Lys30-Gln115 (protein)
chain: KAPKTQPYNPCKPQEVIDTKCMGPKDCLYPNPDSCTTYIQCVPLDEVGNAKPVVKPCPKGLQWNDNVGKKWCDYPNLSTCPVKTPQ
modifications: left off: 6x His (two), N-terminal, cleaved
Take B1: the “n (stoichiometric ratio)” value worked out at 1.09 ± 0.12.

B2: WT-CfAvr4 w/o tag: wild-type CfAvr4 with the purification tag removed (protein, UniProt Q00363 30-135, looked up)
Race-specific elicitor A4: KAPKTQPYNPCKPQEVIDTKCMGPKDCLYPNPDSCTTYIQCVPLDEVGNAKPVVKPCPKGLQWNDNVGKKWCDYPNLSTCPVKTPQPKPKKGGVGGKKASVGHPGY
For the molecule B2, the “n (stoichiometric ratio)” value is reported as 1.09 ± 0.12.
